Patent US7888363B2, “Viral polymerase inhibitors” (Boehringer Ingelheim International GmbH, priority 2003, dated 2011)

Sequences of proteins named here, by UniProt entry; tags and fusion partners are left off. Residues count along the entry.
UniProt P26663, 2420-3010 limits assumed: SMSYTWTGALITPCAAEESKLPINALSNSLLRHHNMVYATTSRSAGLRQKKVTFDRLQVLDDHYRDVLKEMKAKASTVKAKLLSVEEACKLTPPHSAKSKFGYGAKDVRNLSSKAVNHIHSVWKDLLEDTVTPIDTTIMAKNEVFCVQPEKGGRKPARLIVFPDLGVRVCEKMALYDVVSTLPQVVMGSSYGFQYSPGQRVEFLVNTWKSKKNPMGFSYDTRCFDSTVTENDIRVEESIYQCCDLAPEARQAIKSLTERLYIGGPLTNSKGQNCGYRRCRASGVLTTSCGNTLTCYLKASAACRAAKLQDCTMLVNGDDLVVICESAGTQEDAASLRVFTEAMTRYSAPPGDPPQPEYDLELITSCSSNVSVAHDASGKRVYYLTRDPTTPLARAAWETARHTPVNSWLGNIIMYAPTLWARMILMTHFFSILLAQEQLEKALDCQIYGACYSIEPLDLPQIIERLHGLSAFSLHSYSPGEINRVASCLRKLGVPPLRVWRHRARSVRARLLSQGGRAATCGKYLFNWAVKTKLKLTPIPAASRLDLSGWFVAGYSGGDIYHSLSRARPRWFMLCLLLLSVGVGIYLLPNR

Biological target: hepatitis C virus RNA dependant polymerase (NS5B) (Hepatitis C virus genotype 1b, UniProt P26663)
Assay: Inhibition of NS5B RNA dependent RNA polymerase activity
Assay type: biochemical
Procedure: A suitable assay is described in the examples.
Inhibition of NS5B RNA Dependent RNA Polymerase Activity
The compounds of the invention were tested for inhibitory activity against the hepatitis C virus RNA dependant polymerase (NS5B), according to protocol described in WO 03/010141

For `Cc1csc(C2(NC(=O)c3ccc4c(C5CCCCC5)c(-c5ccoc5)n(CC(=O)N5CCOCC5)c4c3)CCC2)n1`, the IC50 (Table 4, class ranges) was 200 to 1000 nM.
`CC(=O)NC(=O)c1ccc2c(C3CCCCC3)c(-c3ccoc3)n(CC(=O)N3CCOCC3)c2c1` showed an IC50 (Table 4, class ranges) of 200 to 1000 nM.
With `O=C(NC1(c2csc(-c3cccs3)n2)CCC1)c1ccc2c(C3CCCCC3)c(-c3ccoc3)n(CC(=O)N3CCC(N4CCCC4)CC3)c2c1` the IC50 (Table 4, class ranges) was 200 to 1000 nM.
`O=C(NS(=O)(=O)c1c(Cl)cccc1Cl)c1ccc2c(C3CCCCC3)c(-c3ccoc3)n(CC(=O)N3CCOCC3)c2c1` gave an IC50 (Table 2, HCV NS5B polymerase) of less than 200 nM.
Compound `O=C(NC1CCCC1OCc1ccccc1)c1ccc2c(c1)c(C1CCCCC1)c(-c1ccoc1)n2CC(=O)N1CCC(N2CCCC2)CC1` (stereo not shown) has an IC50 (Table 7, class ranges) of 1000 to 10000 nM.
With `CC(C)NC(=O)Cn1c(-c2ccsc2)c(C2CCCCC2)c2ccc(C(=O)O)cc21` the IC50 (Table 1, HCV NS5B polymerase) was 200 to 1000 nM.
In the case of `CC(=O)Nc1ccc(S(=O)(=O)NC(=O)c2ccc3c(C4CCCCC4)c(-c4ccoc4)n(CC(=O)N4CCOCC4)c3c2)cc1`, the IC50 (Table 2, HCV NS5B polymerase) is reported as less than 200 nM.
Work on `Nc1nc(-c2ccc(NC(=O)C3(NC(=O)c4ccc5c(C6CCCCC6)c(-c6ccoc6)n(CC(=O)N6CCOCC6)c5c4)CCCNC3)cc2)cs1` (stereo not shown) yielded an IC50 (Table 3, HCV NS5B polymerase) of less than 200 nM.
With `Cc1c(C(=O)O)ccc2c(C3CCCCC3)c(-c3ccoc3)n(CC(=O)N(C)C)c12` the IC50 (Table 7, class ranges) was less than 200 nM.
`CC(C)NC(=O)Cn1c(-c2ccccc2)c(C2CCCCC2)c2ccc(C(=O)O)cc21` was tested, and the IC50 (Table 1, HCV NS5B polymerase) was 200 to 1000 nM.
`O=C(O)/C=C/c1ccc(NC(=O)C2(NC(=O)c3ccc4c(C5CCCCC5)c(-c5ccoc5)n(CC(=O)N5CCOCC5)c4c3)CCC2)cc1` showed an IC50 (Table 3, HCV NS5B polymerase) of less than 200 nM.
For `CC(C)(NC(=O)Cn1c(-c2ccoc2)c(C2CCCCC2)c2ccc(C(=O)O)cc21)C(=O)Nc1ccc([N+](=O)[O-])cc1`, the IC50 (Table 1, HCV NS5B polymerase) was 200 to 1000 nM.
With `Cc1nn(C)c(C)c1S(=O)(=O)NC(=O)c1ccc2c(C3CCCCC3)c(-c3ccoc3)n(CC(=O)N3CCOCC3)c2c1` the IC50 (Table 2, HCV NS5B polymerase) was less than 200 nM.
